Test: xn = mol fraction of the nth substance listed

O=S(=O)(F)[N-]S(=O)(=O)F.[Li+] + CC[n+]1ccn(C)c1.O=S(=O)(F)[N-]S(=O)(=O)F
100 kPa
Settings | electrical conductivity [S/m] | viscosity [mPa·s]
268 K, x1 = 0.2 | 0.3 | –
278 K, x1 = 0.3 | 0.31 | 129.3
288 K, x1 = 0.2 | 0.72 | 54.5
308 K, x1 = 0.2 | 1.35 | 26
308 K, x1 = 0.3 | 0.99 | 36.7
308 K, x1 = 0.4 | 0.66 | 57.5
318 K, x1 = 0.3 | 1.32 | 26.7
338 K, x1 = 0.4 | 1.51 | 21.8
348 K, x1 = 0.4 | 1.87 | 16.7

C[n+]1ccn(CCCC#N)c1.O=S(=O)(F)[N-]S(=O)(=O)F + CC#N
101 kPa
Settings | electrical conductivity [S/m] | viscosity [mPa·s]
288.15 K, x1 = 0.0977 | 4.28 | 1.55
288.15 K, x1 = 0.1994 | 3.09 | 4.94
288.15 K, x1 = 0.2997 | 1.79 | 10.52
288.15 K, x1 = 0.4003 | 1.14 | 22.06
288.15 K, x1 = 0.5007 | 0.722 | 38.87
288.15 K, x1 = 0.5945 | 0.445 | 67.4
288.15 K, x1 = 0.6987 | 0.345 | 106.1
288.15 K, x1 = 0.792 | 0.258 | 148.5
288.15 K, x1 = 0.8983 | 0.158 | 208
288.15 K, x1 = 1 | 0.106 | 401
293.15 K, x1 = 0.0977 | 4.55 | 1.45
293.15 K, x1 = 0.1994 | 3.36 | 4.26
293.15 K, x1 = 0.2997 | 2.05 | 9.18
293.15 K, x1 = 0.4003 | 1.31 | 18.5
293.15 K, x1 = 0.5007 | 0.865 | 31.95
293.15 K, x1 = 0.5945 | 0.551 | 53.2
293.15 K, x1 = 0.6987 | 0.426 | 81.3
293.15 K, x1 = 0.792 | 0.318 | 112
293.15 K, x1 = 0.8983 | 0.209 | 159.3
293.15 K, x1 = 1 | 0.134 | 290
298.15 K, x1 = 0.0977 | 4.81 | 1.36
298.15 K, x1 = 0.1994 | 3.65 | 3.73
298.15 K, x1 = 0.2997 | 2.31 | 8.04
298.15 K, x1 = 0.4003 | 1.51 | 15.67
298.15 K, x1 = 0.5007 | 1.03 | 26.59
298.15 K, x1 = 0.5945 | 0.675 | 42.79
298.15 K, x1 = 0.6987 | 0.524 | 64.2
298.15 K, x1 = 0.792 | 0.392 | 86.6
298.15 K, x1 = 0.8983 | 0.272 | 124.4
298.15 K, x1 = 1 | 0.182 | 215
303.15 K, x1 = 0.0977 | 5.08 | 1.28
303.15 K, x1 = 0.1994 | 3.93 | 3.27
303.15 K, x1 = 0.2997 | 2.57 | 7.09
303.15 K, x1 = 0.4003 | 1.73 | 13.4
303.15 K, x1 = 0.5007 | 1.2 | 22.32
303.15 K, x1 = 0.5945 | 0.814 | 35.12
303.15 K, x1 = 0.6987 | 0.642 | 51.5
303.15 K, x1 = 0.792 | 0.478 | 68.5
303.15 K, x1 = 0.8983 | 0.347 | 98.7
303.15 K, x1 = 1 | 0.234 | 160.2
308.15 K, x1 = 0.0977 | 5.35 | 1.21
308.15 K, x1 = 0.1994 | 4.22 | 2.87
308.15 K, x1 = 0.2997 | 2.84 | 6.29
308.15 K, x1 = 0.4003 | 1.95 | 11.52
308.15 K, x1 = 0.5007 | 1.38 | 19.09
308.15 K, x1 = 0.5945 | 0.964 | 29.06
308.15 K, x1 = 0.6987 | 0.765 | 41.42
308.15 K, x1 = 0.792 | 0.582 | 55.3
308.15 K, x1 = 0.8983 | 0.433 | 78.4
308.15 K, x1 = 1 | 0.299 | 124.6
313.15 K, x1 = 0.0977 | 5.61 | 1.13
313.15 K, x1 = 0.1994 | 4.5 | 2.55
313.15 K, x1 = 0.2997 | 3.11 | 5.56
313.15 K, x1 = 0.4003 | 2.2 | 9.95
313.15 K, x1 = 0.5007 | 1.59 | 16.56
313.15 K, x1 = 0.5945 | 1.13 | 24.3
313.15 K, x1 = 0.6987 | 0.907 | 34.32
313.15 K, x1 = 0.792 | 0.704 | 44.33
313.15 K, x1 = 0.8983 | 0.53 | 63.1
313.15 K, x1 = 1 | 0.377 | 97.6
318.15 K, x1 = 0.0977 | 5.89 | 1.08
318.15 K, x1 = 0.1994 | 4.78 | 2.3
318.15 K, x1 = 0.2997 | 3.39 | 4.97
318.15 K, x1 = 0.4003 | 2.46 | 8.72
318.15 K, x1 = 0.5007 | 1.8 | 14.26
318.15 K, x1 = 0.5945 | 1.31 | 20.83
318.15 K, x1 = 0.6987 | 1.06 | 29.18
318.15 K, x1 = 0.792 | 0.848 | 37.26
318.15 K, x1 = 0.8983 | 0.641 | 50.8
318.15 K, x1 = 1 | 0.47 | 77.7
323.15 K, x1 = 0.0977 | 6.16 | 1.02
323.15 K, x1 = 0.1994 | 5.08 | 2.1
323.15 K, x1 = 0.2997 | 3.67 | 4.43
323.15 K, x1 = 0.4003 | 2.74 | 7.68
323.15 K, x1 = 0.5007 | 2.03 | 12.42
323.15 K, x1 = 0.5945 | 1.51 | 18.27
323.15 K, x1 = 0.6987 | 1.24 | 24.86
323.15 K, x1 = 0.792 | 1.02 | 31.38
323.15 K, x1 = 0.8983 | 0.764 | 42.92
323.15 K, x1 = 1 | 0.584 | 63.3

Source: the CheMixHub ionic liquid set
